Measured values: article PMC8011081, “Bio-guided isolation of anti-leishmanial natural products from Diospyros gracilescens L. (Ebenaceae)” (BMC Complementary Medicine and Therapies, 2021)

Legend:
[1] = system: L. donovani promastigotes (MHOM/SD/62/1S); assay: Inhibitory assay against L. donovani promastigotes (resazurin colorimetric assay); format: cell-based, Leishmania donovani; conditions: CC50/IC50; isolated compounds
Description: The cryopreserved promastigote form of L. donovani (1S (MHOM/SD/62/1S) was obtained from Bei Resources (https://www.beiresources.org/) and is routinely cultured at the Antimicrobial and Biocontrol Agents Unit, University of Yaoundé I, in Medium 199 (Sigma, Darmstadt, Germany) supplemented with 10% Heat-Inactivated fetal Bovine Serum (HIFBS) (Sigma, Darmstadt, Germany) and 100 IU/mL penicillin and 100 μg/mL streptomycin. The culture was maintained in 75 Cm^2 cell culture flask at 28 °C and checked for growth daily and sub-cultured everyday 72 h.
The stock solutions were prepared by dissolving each sample in 100% dimethyl sulfoxide (DMSO) and subsequently diluted serially in non-supplemented culture medium. […] The viability rate of promastigotes positively correlated with the amount of pink resorufin that was produced through the reduction of blue resazurin by the dehydrogenase enzymes in the inner mitochondrial membrane of the living parasites. Briefly, promastigotes from a logarithmic phase culture (4 × 10^5 cells/mL; 90 μL) were seeded in 96-well microtiter plates and were treated with 10 μl of inhibitors at different triplicate concentrations ranging 100 μg/mL-0.16 μg/mL for extracts and fractions and 50 μg/mL-0.08 μg/mL for compounds. The final concentration of DMSO in each well was not higher than 1%. Plates were incubated for 28 h at 28 °C, followed by the addition of 1 mg/mL resazurin (Sigma, Darmstadt, Germany). […] After an additional incubation for 44 h, plates were then read on a Magelan Infinite M200 fluorescence multi-well plate reader (Tecan, Männedorf, Switzerland) at an excitation and emission wave lengths of 530 and 590 nm respectively.

L. donovani amastigotes = assay: Inhibitory assay against intracellular L. donovani amastigotes in Raw 264.7 macrophages (resazurin); format: cell-based, Leishmania donovani; conditions: CC50/IC50; isolated compounds
Description: The effect of plant isolates against the intracellular amastigote form of L. donovani was evaluated essentially as described by Jain et al. with some modifications. Briefly, macrophage Raw 264.7 cells ([…]) were seeded in 96 well plates and incubated for 6 h at 37 °C under 5% CO2 for adhesion of the cells. Afterwards, the non-adherent cells were washed-out with sterile PBS. The adherent Raw 264.7 cells were infected with metacyclic promastigotes (4 × 10^5 cells) at an infection ratio of 1:10 macrophage: parasites and incubated for 24 h at 37 °C under 5% CO2 in order to allow infection of macrophages by metacyclic promastigotes. Thereafter, the overlying medium was removed, and the monolayer cells with internalized amastigotes were carefully washed four times with PBS to remove free parasites. Freshly prepared M199 medium containing 10% FBS and the test extracts were added in triplicate to the infected cells at serially diluted concentrations and incubated for 48 h at 37 °C under 5% CO2. After incubation, 0.05% Sodium dodecyl sulfate (SDS) was added in each well for 30 s for controlled lysis followed by M199 with 10% FBS as macrophage lysis stopper. Resazurin reagent (250 μg/mL) was thereafter added in each well and the plates were incubated for 24 h followed by fluorescence recording at λexcitation = 530 nm and λemission = 590 nm using a Tecan Infinite M200 microplate reader (Tecan). Inhibition percentages were calculated using Microsoft Excel Software and median inhibitory concentration (IC50) obtained from dose-response curves using GraphPad Prism 5.0. Software.

Compound	SI (Promastigotes) [1]	SI (Amastigotes) (L. donovani amastigotes)
CCC(CCC(C)C1CCC2C3CC=C4CC(OC5OC(CO)C(O)C(O)C5O)CCC4(C)C3CCC12C)C(C)C [β-sitosterol glucoside (6), β-sitosterol 3-O-D-glucopyranoside]	0.58	0.89
C=C(C)[C@@H]1CC[C@]2(C)CC[C@]3(C)[C@H](CC[C@@H]4[C@@]5(C)CC[C@H](O)C(C)(C)[C@@H]5CC[C@]43C)[C@@H]12 [Lupeol (1), Lupeol]	0.82	0.41
C=C(C)[C@@H]1CC[C@]2(C(=O)O)CC[C@]3(C)[C@H](CC[C@@H]4[C@@]5(C)CC[C@H](O)C(C)(C)[C@@H]5CC[C@]43C)[C@@H]12 [Betulinic acid (3), Betulinic acid]	6.02	4.46
